The list shows a part of the results, in another mix than the full data. Activity calls are given as the source filed them. Rule as the data show it: active = activity change below about -30%; inactive = the rest, inconclusive results apart.
% is scaled to controls: 0 for no effect and ±100 for the full control effect.

This assay is described as follows: qHTS Assay for Inhibitors of Fructose-1,6-bisphosphate Aldolase from Giardia Lamblia: Coupling assay counterscreen. The following applies: coupling enzyme system counterscreen, AmpLite Red fluorescence; at 58.2 µM (top of the series). From the text:
MLPCN Grant: MH085699-01 Assay Provider: Osnat Herzberg, University of Maryland NCGC Assay Overview: The objective of this project is to obtain compounds that inhibit Giardia lamblia growth. G. lamblia is a human pathogen which afflicts impoverished nations; it is the most common cause of outbreaks of diarrhea in the United States. During the course of our study of potential drug targets in Giardia, we have identified the Class II (Zn2+ functions in electrophilic catalysis) fructose-1,6-bisphosphate aldolase (FBPA) as an excellent candidate for drug targeting. FBPA is a key glycolytic pathway enzyme, essential for G. lamblia survival. The human FBPA belongs to the Class I aldolases, which have a different substrate binding site structure and a radically different catalytic mechanism (employing a lysine-Schiff base intermediate). Therefore, affinity-based or mechanism-based inhibitors of the Giardia FBPA are expected not to interfere with the catalytic function of the human FBPA. A glyceraldehyde-3-phosphate dehydrogenase/triose phosphate isomerase/NAD/arsenate coupled assay was adapted to the 1536-well HTP format for use in the primary screen. This was done by coupling it to a diaphorase/resazurin/resorufin reaction that can be monitored by fluorescence (excitation, 544 nm; emission, 590 nm). Compounds identified in this screen will be further evaluated by coupling the […]/triose phosphate isomerase/NADH assay to a phenazine methosulfate/tetranitroblue tetrazolium color reaction. False positives due to the dehydrogenases and diaphorase inhibition will be eliminated, and selectivity assay will triage inhibitors of mammalian triose phosphate isomerase and the Class I FBPA. G. lamblia FBPA inhibitors identified by the in vitro analyses will be examined for growth inhibition of Giardia trophozoites, and for cytotoxicity in human cells. This assay specifically addresses whether activity observed in the primary screen (AID 2451) is related to inhibition of the coupling assay used, as opposed to inhibition of aldolase. Actives in this assay are considered inconclusive for activity against aldolase.
NCGC Assay Protocol: Step,Parameter,Value,Description 1,Coupling enzyme reagent,2 uL,glyceraldehyde-3-phosphate 2,Compound,23 nL,3.68 nM-57.5 uM final concentration 3,Time,10 min,RT Incubation 4,Substrate/detection Reagent,2 uL,Substrate + enzyme coupling system + AmpLite Red kit 5,Time,20 min,RT Incubation 6,Detector,525 nm/598 nm (Fluorescence),ViewLux Fluorescence Read (Read 1) Notes: 1,Medium-binding black solid-bottom Kalypsys plates. FRD or Kalypsys dispenser. 2,Compound Library (10 mM ,1:5 dilution). Pin-transferred for a [final] range of 3.68 nM-57.5 uM. 3,RT incubation 4,FRD or Kalypsys dispenser, 2 uL of reaction mixture. Bottle kept at 4C and covered in foil to protect from light. 5,RT incubation 6,ViewLux Protocol 1194; Excitation filter wheel A (525/20 Pol; BODIPY TMR FP), Emission filter wheel B (598/25 S; BODIPY TMR FP S). Keywords: Fructose-bisphosphate aldolase, FBPA , Giardia lamblia , Giardia, HTS, Inhibitors
A general note: Quantitative high-throughput screening tests each substance at several concentrations.
`O=C(NCC1(N2CCCCC2)CCCCC1)c1cccc([N+](=O)[O-])c1`: the activity change, negative = inhibition is inactive: -0.817%.

Take `N#CC1(Nc2ccccc2)CCN(CCc2ccccc2)CC1`: the activity change, negative = inhibition was inactive: 2.19%.

As to `CCN1CCC(Nc2ccc(Cl)cc2)CC1`, the activity change, negative = inhibition is inactive: -1.52%.

With `O=C(NCC1(N2CCCCC2)CCCCC1)c1cccc(C(F)(F)F)c1`, the activity change, negative = inhibition is inactive: -0.226%.

Take `O=[N+]([O-])c1cc([N+](=O)[O-])c(NCC2CCS(=O)(=O)C2)c([N+](=O)[O-])c1` (centres undefined): the activity change, negative = inhibition was inactive: -15.7%.

As for `CN1CCN(CCOC(=O)C(O)(c2ccccc2)c2ccccc2)CC1`, the activity change, negative = inhibition is inactive: 1.85%.

As to `COc1ccc(NC2CCN(C(=O)OC(C)(C)C)CC2)cc1`, the activity change, negative = inhibition is inactive: -7.45%.

Turning to `COc1cc(C(=O)NCC2(N3CCCCC3)CCCCC2)ccc1OC(F)F`, the activity change, negative = inhibition was inactive: 3.58%.

For the compound `O=C(NCC1(N2CCOCC2)CCCCC1)c1cc(=O)[nH]c2ccccc12`, the activity change, negative = inhibition was inactive: 0.414%.

Take `CC(C)(C)OC(=O)N1CCC(N(C(=O)c2ccccc2)c2ccc(Cl)cc2)CC1`: the activity change, negative = inhibition is inactive: -1.56%.

`N#Cc1ccc(C(=O)NCC2(N3CCCCC3)CCCCC2)cc1`: the activity change, negative = inhibition is inactive: 0.729%.

In the case of `CCOC(=O)C(CC)C1=NC(C)(C)Cc2ccccc21.O=[N+]([O-])c1cc([N+](=O)[O-])c(O)c([N+](=O)[O-])c1` (centres undefined), the activity change, negative = inhibition was inactive: 11.6%.

In the case of `CCCN1CCC(Nc2cc(OC)cc(OC)c2)CC1`, the activity change, negative = inhibition is inactive: -14%.

On to `c1ccc(CN2CCC(Nc3ccccc3)CC2)cc1`, for which the activity change, negative = inhibition was inactive: 1.34%.

As for `CN(C)C1(CNC(=O)c2cccc(C#N)c2)CCCCC1`, the activity change, negative = inhibition is inactive: 1.75%.

`COc1ccc(C(=O)NCC2(N3CCOCC3)CCCCC2)cc1OC`: the activity change, negative = inhibition is inactive: -1.58%.

`N/C(=N\O)c1c(N)no[n+]1[O-]`: the activity change, negative = inhibition was inactive: 2.19%.

Consider `CCOC(=O)N1CCC(Nc2ccc(C)cc2)CC1`, for which the activity change, negative = inhibition is inactive: 1.06%.

In the case of `O=C(O)c1cccc(Nc2c([N+](=O)[O-])cc([N+](=O)[O-])cc2[N+](=O)[O-])c1`, the activity change, negative = inhibition is inactive: 12.6%.

In the case of `O=C(OC1CN2CCC1CC2)C1c2ccccc2C=Cc2ccccc21` (centres undefined), the activity change, negative = inhibition is inactive: -0.752%.

`CN1CCC(Nc2ccc(F)c(Cl)c2)CC1`: the activity change, negative = inhibition was inactive: 0.744%.

For the compound `CCOc1ncccc1C(=O)NCC1(N2CCOCC2)CCCCC1`, the activity change, negative = inhibition is inactive: 3.76%.

In the case of `CCCOc1ccc(C(=O)NCC2(N(C)C)CCCCC2)cc1`, the activity change, negative = inhibition is inactive: 0.176%.

Take `O=C(O)C1(Nc2ccccc2)CCN(Cc2ccccc2)CC1`: the activity change, negative = inhibition is inactive: -0.629%.

In the case of `CC(C)(C)OC(=O)N1CCC(Nc2ccccc2)CC1`, the activity change, negative = inhibition was inactive: -0.0558%.

As for `CCC(CO)(C(=O)OC1CN2CCC1CC2)c1ccccc1` (centres undefined), the activity change, negative = inhibition was inactive: 1.59%.

With `COc1cc(OC)cc(C(=O)NCC2(N3CCOCC3)CCCCC2)c1`, the activity change, negative = inhibition is inactive: 0.74%.

In the case of `COc1cccc(C(=O)N(c2cc(C)cc(C)c2)C2CCN(C(=O)OC(C)(C)C)CC2)c1`, the activity change, negative = inhibition is inactive: -0.311%.

In the case of `CCCOc1ccc(C)cc1CN(CCCl)CCCl`, the activity change, negative = inhibition is inactive: 0.315%.

As to `CN1CCC(Nc2ccc(Cl)cc2)CC1`, the activity change, negative = inhibition is inactive: 1.28%.

With `COc1cc(OC)cc(C(=O)NCC2(N3CCCCC3)CCCCC2)c1`, the activity change, negative = inhibition was inactive: 1.58%.

In the case of `Fc1ccccc1NC1CCN(Cc2ccccc2)CC1`, the activity change, negative = inhibition is inactive: 0.236%.

On to `CCN1CCC(Nc2cccc(F)c2)CC1`, for which the activity change, negative = inhibition was inactive: -2.37%.

As for `CN(C)c1ccc(C(=O)NCC2(N3CCCCC3)CCCCC2)cc1`, the activity change, negative = inhibition was inactive: 1.24%.
